## Library screen at single concentrations

Mtb cholesterol medium: 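Whole-cell growth test on Mycobacterium tuberculosis, read after 4 days in a medium based on cholesterol and the lipid DPPC; the read-out is not stated. Compounds at 50 µM. The record gives no direction; compounds that gave an IC50 in retests scored well above the rest, so higher reads as more growth inhibition. About 69,000 compounds were tested under these conditions; 0.54% (about 370) showed 50% or more at least once.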
Mtb glucose medium: 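Whole-cell growth test on Mycobacterium tuberculosis, read after 3 days in glucose-containing 7H9 medium; the read-out is not stated. Concentration: 50 µM. Direction is inferred from retests: higher values go with more growth inhibition. Of about 69,000 compounds tested this way, about 760 (1.1%) reached 50% or more in at least one test.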

Results are given as percent effect.
The controls that fix the scale are not given in the record; negative values are as filed.
Many other results are left out here, so strong results are more common than in the screen.
Two or more numbers in one place are separate tests of the same structure; such repeats can differ widely.
A dash means the value is not listed here; it may have been measured.

Compound	Mtb cholesterol medium	Mtb glucose medium
O=S(=O)(CCSc1nccn1C1CC1)c1ccccc1	7.921%	-14.93%
COc1cccc(C(CO)NC(=O)Cc2cccc(C)c2)c1 (stereo not given)	6.469% & -2.447%	-
Cc1cccc(CC(=O)N2CCN(c3nccn3C)CC2)c1.Cl	-	8.946%
CO[C@@H]1CCN(c2ncccn2)[C@H]1Cc1ccccc1	-	-2.297% & 4.418%
COC(=O)CNC(=O)CCCn1cnc2ccccc2c1=O	-	-8.282%
COc1ccc(CC(=O)Nc2c(C)nc(N3CCCC3)nc2C)cc1	-	52.97% & 36.18%
Cl.O=C1CC2(CCNCC2)C(=O)N1Cc1ccc(F)cc1	-	-8.628%
c1ccc2c(c1)CN(c1ncnc3c1CCNC3)CCO2	-	17.64%
O=C(NCCn1cccc1)c1c(O)cc(F)cc1F	28.37%	8.327%
Fc1cccnc1N1CCC2(CNCCC2(F)F)C1 (stereo not given)	-37.39%	-
c1csc(-c2nc(CNCCn3cccn3)cs2)c1	-3.351%	-38.3% & 6.827%
Cc1ccc(-n2c(C)nnc2SCC(O)COCc2ccco2)cc1 (stereo not given)	-	52.47%
CN(Cc1nc2ccccc2o1)CC1CCCN1c1cccnn1 (stereo not given)	-	2.313%
O=C(CNc1ccc(F)cc1OCC(F)(F)F)NCc1ccco1	15.16% & 13.49%	19%
Cc1cn2c(n1)C(CNCC1=Cc3ccccc3OC1)CCC2 (stereo not given)	-	39.42%
Cc1nn(C2CCCCC2)c2nc(C(C)(C)CN3CCOCC3)[nH]c12	-	-3.772%
Cc1nnc(CN(C)CCOc2cccc(Cl)c2)o1	-	15.49%
O=C(c1nnn(-c2ccc(C(F)(F)F)cc2)n1)N1CC(O)C1	-	-16.07% & 6.73%
CCNC(=O)NC(=O)CN(CC(C)O)c1ccccc1 (stereo not given)	-	30.28%
O=C1CCC2(CCN(Cc3cscn3)CC2)CN1CCCO	-	62.02%
CN(C)c1nccc(C2CCN(c3ncccn3)CC2)n1	-	54.57%
CCc1cn[nH]c1C1CCN(c2cc(C)c3cc(OC)ccc3n2)CC1	-	26.72%
Cc1ccc(-c2nc(CN3CCOC(Cn4cncn4)C3)cs2)o1 (stereo not given)	-	-4.397%
CCCc1nc(C)cc(N2CCC3(CCC(=O)N(CCO)C3)CC2)n1	-	91.38% & -14.37%
COc1cccc(CN(C)C(=O)c2csc(-c3nnc[nH]3)n2)c1	-6.483% & -5.001%	-
O=S(=O)(NCCNc1ccc(-n2cccc2)nn1)c1cccs1	68.32%	63.08% & 64.16%
c1ccc(-c2nc3c(c(NCCc4c[nH]cn4)n2)CCNC3)cc1	-	45.61% & 66.85%
COc1cnc(C2(O)CCN(C(=O)c3cccnc3)CC2)c(OC)n1	76.64%	-
O=C(CS(=O)(=O)C1CCCC1)NC1CCCc2cc(OC(F)F)ccc21 (stereo not given)	-	15.08%
N#Cc1ccsc1NC(=O)CN1CCn2c(nnc2C2CC2)C1	-	52.39%
COc1cc2cc(C)c(SCCN3CCCC3)nc2cc1OC.Cl	-	51.88%
CCCC1c2cccn2CCN1C(=O)Cn1cnc2sc(C)cc2c1=O (stereo not given)	56.68% & 18.73%	-
Cc1cc(C(=O)N2CCN(c3nc4c(C(C)C)cccc4s3)CC2)no1	51.22%	48.31%
O=C(CSc1nncs1)N1CCN(Cc2ccc(Cl)cc2)CC1	5.646%	-
CC(C)c1cc(=O)[nH]c(-n2nc(C3CC3)cc2N)n1	88.29%	93.45%
CCC(=O)c1cccc(S(=O)(=O)NC(C)C#N)c1 (stereo not given)	-	-2.893% & 0.4562%
Cc1csc(N2CCN(C(=O)c3cc(Cl)c[nH]3)CC2)n1	10.73% & 8.478%	27.33%
O=C(CNc1cc(-c2ccccc2)nc2ccnn12)NC1CC1	4.169% & -3.539%	-
CCN1c2ccc(-c3cncn3CCCn3ccnc3C)cc2CC1C.Cl (stereo not given)	35.25% & 59.65%	57.44%
Cc1cc(NCCC(=O)NC2CCCC2)nc(-c2ccncc2)n1	-	0.8916%
Cn1ccnc1CNCCNc1ncc(Cl)cc1Cl	-	-14.23%
CC1c2cccn2CCN1C(=O)CCc1nc(C2CC2)no1 (stereo not given)	-	-0.3677% & -22.79%
CCOc1ccc2nc(CN3CCC(CN)C3)ccc2c1 (stereo not given)	-	54.76%
CC(=O)N1CCCC1C(=O)NCCOc1cc(C)cc(C)c1 (stereo not given)	-26.14%	-10.91%
O=C(c1cc(COc2ccc3c(c2)OCO3)[nH]n1)N1CCOCC1	0.07057%	-
CC(=O)N1CCCN(C(=O)c2oc(Br)cc2C)CC1	-	-4.195%
CC(NCc1ccc(OCC(N)=O)cc1)c1ccc(Cl)cc1.Cl (stereo not given)	5.919%	-11.25%
O=C(CCN1CCCN(c2nccs2)CC1)Nc1ccccc1	-	-28.67%
O=C(C1CCCC1)N1CCCC1c1nnc2n1CCCCC2 (stereo not given)	-23.14%	-
CCn1cc(-c2cc(C(=O)N3CCOCC3)c3cc(Cl)ccc3n2)cn1	-	52.31%
CSc1ccc(C(CN)N2CCc3sccc3C2)cc1 (stereo not given)	-	-15.45% & 71.78%
CN(Cc1nc(Cc2cccc(C(F)(F)F)c2)no1)C1CCCCC1	-	14.71% & 56.49%
CCc1nc2n(n1)CC(NCc1nc(C)c(C)o1)CC2 (stereo not given)	53.19%	-
CC(C)C(=O)NS(=O)(=O)CCc1ccccc1	-	5.527% & 11.64%
CC(=O)c1c(C)nn(CC(=O)Nc2ccc(Br)cc2)c1C	-	59.63% & 65.27%
O=C(CSCC1CC1)N1CCCN(Cc2ccc(F)cc2)CC1	20.28%	-28.09% & -0.5773%
O=C(O)C(F)(F)F.[H][C@@]12CN(CC(C)C)C[C@]1([H])C(=O)N(CC)C21CCN(C(=O)NC(C)C)CC1	10.72% & -2.25%	-
CC(C)(C)Cc1nnc(NCc2cccc(C#N)c2)o1	-	-28.52%
O=C(NC1=NCCCN1c1ccc(Cl)cc1)c1cccc(Cl)c1	-	-68.83%
CCCn1c(N2CCCCC2)nc2c(C)nn(C)c2c1=O	-	-37.89%
COC(=O)CCC(=O)NC1CCCc2cc(OC(F)F)ccc21 (stereo not given)	-	34.66%
COc1ccc(CC(=O)Nc2c(C)nc(N3CCOCC3)nc2C)cc1	-	-0.9237% & 35.1%
CCN(CC)C(=O)C1CCN(c2ccc(Cl)cc2C#N)CC1	-	3.006% & -28.04%
CS(=O)(=O)c1cccc(C(N)c2ccc(Cl)cc2)c1 (stereo not given)	6.655%	10.85%
O=C(Nc1nc[nH]n1)c1cc(-c2ccc(F)cc2)n[nH]1	-3.316%	-12.94%

The first 7 entries again:

Compound,Mtb cholesterol medium,Mtb glucose medium
O=S(=O)(CCSc1nccn1C1CC1)c1ccccc1,7.921%,-14.93%
COc1cccc(C(CO)NC(=O)Cc2cccc(C)c2)c1 (stereo not given),6.469% & -2.447%,-
Cc1cccc(CC(=O)N2CCN(c3nccn3C)CC2)c1.Cl,-,8.946%
CO[C@@H]1CCN(c2ncccn2)[C@H]1Cc1ccccc1,-,-2.297% & 4.418%
COC(=O)CNC(=O)CCCn1cnc2ccccc2c1=O,-,-8.282%
COc1ccc(CC(=O)Nc2c(C)nc(N3CCCC3)nc2C)cc1,-,52.97% & 36.18%
Cl.O=C1CC2(CCNCC2)C(=O)N1Cc1ccc(F)cc1,-,-8.628%

From ChEMBL document CHEMBL3988442, “University of Dundee, Small-Polar-MMV Screening Library” (2021).